Potato spindle tuber viroid, loop 15: variant abundance in plants

The measurements come from Wu et al. 2024 (doi:10.1371/journal.ppat.1012142).

The pool varies loop 15 of the PSTVd intermediate strain in the pattern GGAAACCGNNNNNNC; wild type is GGAAACCGCUACUAC (upper and lower strand joined, each 5' to 3', the first 7 letters being the upper strand, closing pairs included).

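A pool of all variants was put on leaves of three Nicotiana benthamiana plants. Progeny were sequenced from the inoculated region (day 5), the margin of the inoculated leaf (day 10) and systemic leaves (day 12).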

Numbers give reads per thousand; 0 = not seen among the reads, higher = more abundant. Each value is the mean of three plants. "Pool" is the share in the plasmid pool used as inoculum, on the same scale. The inoculated region was read from the minus strand, the other sites from the plus strand.

GGAAACCGUUGUGUC (pool 0.352) read inoculated region 0.0721; leaf margin 0.0108; systemic leaves 0.
GGAAACCGUGCCUAC (pool 0.160) read inoculated region 0.293; leaf margin 0.134; systemic leaves 0.0585.
GGAAACCGCAUCUUC (pool 0.208) read inoculated region 0.0859; leaf margin 0.0134; systemic leaves 0.
GGAAACCGAAAGGGC (pool 0.160) read inoculated region 0.0788; leaf margin 0; systemic leaves 0.00537.
GGAAACCGGACCAAC (pool 0.240) read inoculated region 0.100; leaf margin 0; systemic leaves 0.00537.
GGAAACCGGGGCAUC (pool 0.256) read inoculated region 0.0948; leaf margin 0.0208; systemic leaves 0.00760.
GGAAACCGGCGAUUC (pool 0.272) read inoculated region 0.100; leaf margin 0.0262; systemic leaves 0.
GGAAACCGCCCGGAC (pool 0.256) read inoculated region 0.231; leaf margin 0.150; systemic leaves 0.00537.
GGAAACCGCGCUAGC (pool 0.192) read inoculated region 0.0795; leaf margin 0.0362; systemic leaves 0.
GGAAACCGAGCCAAC (pool 0.304) read inoculated region 0.0742; leaf margin 0.00539; systemic leaves 0.
GGAAACCGAACUGUC (pool 0.224) read inoculated region 0.0670; leaf margin 0.00668; systemic leaves 0.00537.
GGAAACCGACUAGUC (pool 0.304) read inoculated region 0.192; leaf margin 0.0215; systemic leaves 0.
GGAAACCGAAGUGCC (pool 0.128) read inoculated region 0.0667; leaf margin 0.0282; systemic leaves 0.
GGAAACCGCUGAUCC (pool 0.432) read inoculated region 0.107; leaf margin 0.0262; systemic leaves 0.
GGAAACCGAGAUCUC (pool 0.160) read inoculated region 0.142; leaf margin 0.00668; systemic leaves 0.
GGAAACCGAAACGAC (pool 0.144) read inoculated region 0.0979; leaf margin 0.0195; systemic leaves 0.
GGAAACCGUAUUUUC (pool 0.288) read inoculated region 0.0632; leaf margin 0.00668; systemic leaves 0.
GGAAACCGAGACCUC (pool 0.224) read inoculated region 0.0806; leaf margin 0.0141; systemic leaves 0.00537.
GGAAACCGGAGCCGC (pool 0.224) read inoculated region 0.0984; leaf margin 0.00668; systemic leaves 0.
GGAAACCGACACCGC (pool 0.144) read inoculated region 0.0939; leaf margin 0; systemic leaves 0.
GGAAACCGCUAAAAC (pool 0.272) read inoculated region 0.312; leaf margin 0.126; systemic leaves 0.0923.
GGAAACCGGGGCGUC (pool 0.192) read inoculated region 0.0694; leaf margin 0.00668; systemic leaves 0.0130.
GGAAACCGAUAUCGC (pool 0.384) read inoculated region 0.149; leaf margin 0.00742; systemic leaves 0.
GGAAACCGUGUGCGC (pool 0.144) read inoculated region 0.118; leaf margin 0; systemic leaves 0.
GGAAACCGAAGCCAC (pool 0.256) read inoculated region 0.0698; leaf margin 0.00539; systemic leaves 0.0107.
GGAAACCGGCGUCUC (pool 0.112) read inoculated region 0.0966; leaf margin 0; systemic leaves 0.
GGAAACCGAACACCC (pool 0.272) read inoculated region 0.0814; leaf margin 0; systemic leaves 0.
GGAAACCGGGGGAAC (pool 0.256) read inoculated region 0.0891; leaf margin 0.0262; systemic leaves 0.
GGAAACCGCCUGGAC (pool 0.224) read inoculated region 0.204; leaf margin 0.00742; systemic leaves 0.
GGAAACCGACUUUAC (pool 0.208) read inoculated region 0.117; leaf margin 0.0208; systemic leaves 0.
GGAAACCGCCGACCC (pool 0.160) read inoculated region 0.0885; leaf margin 0; systemic leaves 0.

A selection of 2 entries from above:

sequence	pool	inoculated region	leaf margin	systemic leaves
GGAAACCGGACCAAC	0.240	0.100	0	0.00537
GGAAACCGGGGCAUC	0.256	0.0948	0.0208	0.00760

Samples held 43,870 to 66,106 reads, so the smallest values rest on one or two reads. The authors trace changes outside the varied positions to PCR and sequencing errors or to mutation in the plant; presence does not show that a variant is infectious alone. Wild type was 33.9 per thousand in the pool and the most common sequence in every sample (inoculated region 202, 200, 159; leaf margin 724, 746, 710; systemic leaves 856, 883, 880).